From US11299506B2, “Acylnucleoside phosphonates, prodrugs thereof and use thereof as medicament” (UNIVERSITE DE MONTPELLIER, priority 2017, dated 2022)

System: Plasmodium falciparum (strain 3D7)
Experiment: In vitro anti-Plasmodium falciparum activity (infected erythrocytes, radioactive precursor incorporation)
Format: cell-based
Experimental: After 48 h of incubation in the absence (control) or in the presence of the compound to be tested, the radioactive precursor is added, and the reaction is continued for another 18 h, then stopped by freezing at −80° C. The macromolecules, including the radiolabeled nucleic acids, are collected on a filter. The incorporated radioactivity is measured with the scintillation counter after addition of scintillation cocktail. The radioactive background noise is measured based on a suspension of healthy erythrocytes (same conditions as for parasite-containing suspensions). The viability of the parasites is expressed as a (nonspecific derived) percentage of the control. […] The IC50 values thus determined are the result of at least two experiments carried out independently in duplicate. Batches A and B correspond to two different syntheses according to the same procedure and carried out in their totality by two different operators, at a six month interval.

N-9[(2S)-2-hydroxy-4-phosphonobutyl]adenine
IC50 (read-out: Activity against P. falciparum (3D7), detection 3H-Ethanolamine, Batch A IC50, 3H-ethanolamine detection, 48 h contact): > 1000 µM
IC50 (read-out: Activity against P. falciparum (3D7), detection 3H-Hypoxanthine, Batch A IC50, 3H-hypoxanthine detection, 48 h contact): > 1000 µM

Read-outs that look alike come from different tables or passages of the source.
